Results of unrelated studies side by side (data: NIAID ChemDB).

Shared fields: tests in culture; species: Mycobacterium tuberculosis

Inhibition is in % at the dose shown (toxicity tests: loss of growth or viability). MIC bound comes from a single tested concentration. ECn is the concentration giving n% inhibition of infection, replication or growth. Neighbouring rows are from separate reports. Blank or dashed fields: not listed here. MIC50, MIC90 and the like: level of inhibition, or share of isolates inhibited.

| structure | tested at | endpoint | changes | read by | strain | result |
|---|---|---|---|---|---|---|
| CCC(CC)C(=O)NC(=O)NC(=O)N1CC(C)OC(C)C1 | 12.5 µg/mL | inhibition |  | BACTEC | H37Rv | 0% |
| COc1c(N2C[C@@H]3CCCN[C@@H]3C2)c(F)cc2c(=O)c(C(=O)O)cn(C3CC3)c12 |  | EC50 |  |  | H37Rv | 0.116 µg/mL |
| N#Cc1ccn2c(-c3ccccc3)c(-c3ccccc3)c(C(O)C3CCCCC3)c2c1 |  | MIC |  |  | H37Rv | >6.25 µg/mL |
| CC1=C(C(=O)Nc2ccccc2Cl)C(c2ccc(Cl)cc2)C(C(=O)Nc2ccccc2Cl)=C(C)N1 | 2.5 µg/mL | inhibition |  |  | H37Rv | 17% |
| FC(F)(F)C(F)(F)C(F)(F)C(F)(F)c1nc2c(Cl)cc(Cl)cc2[nH]1 |  | MIC |  |  | My 331/88 | 8 µM |
| CC(=O)N[C@@H]1[C@@H](OC(C)=O)[C@H](OC(C)=O)[C@@H](COC(C)=O)O[C@H]1NC(=S)NCC(=O)c1ccc(C)cc1 |  | MIC bound |  | resazurin | H37Rv | >6.25 µg/mL |
| COc1nc2cc(C)c(Br)cc2cc1C(c1ccccc1)C(O)(CCN(C)C)c1cccc2ccccc12 |  | MIC90 |  |  | H37Rv | 1.8 µg/mL |
| O=C(NN1C(=O)C=CC1=O)c1ccc(-n2cccc2)cc1 |  | MIC |  | resazurin | H37Rv | 6.25 µg/mL |
| FC(F)(F)C(F)(F)C(F)(F)c1nc2cc(Cl)c(Cl)cc2[nH]1 |  | MIC |  |  | My 331/88 | 8 µM |
| C=C[C@](C)(O)CC[C@@H]1[C@@]2(C)CCCC(C)(C)[C@@H]2CC[C@@]1(C)O |  | MIC |  |  |  | 6 µg/mL |
| O=[N+]([O-])c1ccc(NC(=S)Nc2ncc(C3CCC3)o2)cc1 |  | MIC |  | agar | H37Rv | 0.31 µM |
| NC1CN(c2c(F)cc3c(=O)c(C(=O)O)cn(C4CC4)c3c2Cl)CC12CC2 |  | MIC |  |  | 44 (RFP-resistant) | 0.1 µg/mL |
| NNC(=O)c1ccccc1SSc1ccccc1C(=O)NN |  | MIC |  |  | H37Rv | >12.5 µg/mL |
| S=C(Nc1ccccn1)Nc1ncc(C2CCC2)o1 |  | MIC |  | agar | H37Rv | 6.42 µM |
| COc1nc2ccc(Br)cc2cc1C(c1ccccc1)C(O)(CC[N+](C)(C)[O-])c1ccccc1 |  | MIC90 |  |  | H37Rv | 16.49 µg/mL |
| O=C1CCc2nc3ccccc3c(=O)n21 | 6.25 µg/mL | inhibition |  | resazurin | H37Rv | -29% |
| CO[C@H]1/C=C/O[C@@]2(C)Oc3c(C)c(O)c4c(O)c(c(/C=N/N5CCN(C)CC5)c(O)c4c3C2=O)NC(=O)/C(C)=C\C=C\[C@H](C)[C@H](O)[C@@H](C)[C@@H](O)[C@@H](C)[C@H](OC(C)=O)[C@@H]1C |  | MIC |  |  | T13704 | 6.2 µM |
| CC1=C(C(=O)Nc2cc(C)ccc2C)C(c2ccccc2O)C(C(=O)Nc2cc(C)ccc2C)=C(C)N1 | 2.5 µg/mL | inhibition |  |  | H37Rv | 27% |
| COc1cc(-c2ccccc2)nc2ccccc12 |  | MIC |  |  | H37Rv | 16 µg/mL |
| COc1nc2ccc(-c3ccc(CO)o3)cc2cc1C(c1ccccc1)C(O)(CCN(C)C)c1cccc2ccccc12 |  | MIC90 |  |  | H37Rv | 9.08 µg/mL |
| CO[C@H]1/C=C/O[C@@]2(C)Oc3c(C)c(O)c4c(O)c(c(/C=N/OCc5ccc(Cl)cc5Cl)c(O)c4c3C2=O)NC(=O)/C(C)=C\C=C\[C@H](C)[C@H](O)[C@@H](C)[C@@H](O)[C@@H](C)[C@H](OC(C)=O)[C@@H]1C |  | MIC |  |  | H37Rv | >5 µg/mL |
| O=[N+]([O-])c1ccc(Sc2nc3c(Cl)cc(Cl)cc3[nH]2)cc1 |  | MIC |  |  | My 331/88 | 4 µM |
| CO[C@@H]1[C@H](O)[C@@H](C)O[C@@H](OC[C@H](C)[C@H]2OC(=O)[C@H](C)[C@@H](O[C@H]3C[C@@H](C)N(C)C[C@H](C)O3)[C@H](C)[C@@H](O[C@@H]3O[C@H](C)CC(=O)[C@H]3O)[C@@H](C)C[C@](C)(OC(=O)N3CCO[C@@H](C)C3)C(=O)[C@H](C)[C@H](OC(=O)CC(C)C)[C@H]2C)[C@@H]1OC |  | MIC |  | resazurin | H37Rv | 1.6 µM |
| Cc1cnc(NC(=S)Nc2ncc(C3CCC3)o2)cc1C |  | MIC |  | agar | MDR clinical isolate | 0.62 µM |
| Cc1cc2oc(=O)cc(-c3ccccc3)c2c(C)c1-c1ccc(CNC2CCCCC2)cc1 |  | EC90 | FadD32 | turbidity | H37Rv | 10.5 µM |
| OC(COc1ccc2c(c1)CCC2)Cn1cnc2ccccc21 |  | EC50 |  | fluorescence | H37Rv | 0.22 µM |
| CCCCCCCCCCO/N=C/c1c2c(O)c3c(O)c(C)c4c(c3c1O)C(=O)[C@@](C)(O/C=C/[C@H](OC)[C@@H](C)[C@@H](OC(C)=O)[C@H](C)[C@H](O)[C@H](C)[C@@H](O)[C@@H](C)/C=C/C=C(/C)C(=O)N2)O4 |  | MIC |  |  | H37Rv | 20 µg/mL |
| S=C(Nc1ccc(Cl)cc1)Nc1ncc(C2CCC2)o1 |  | MIC |  | agar | H37Rv | 1.23 µM |
| ICC1Cc2c(c3ccccc3c3nc4ccccc4nc23)O1 |  | MIC |  | resazurin | ATCC 35338 | >100 µg/mL |
| COc1nc(C)nc(NC(=O)NS(=O)(=O)c2ccccc2OCCCl)n1 |  | MIC |  |  | T13704 | 6.2 µM |
| CCCCCCC1(/C=C/c2ccc(Cl)c(Cl)c2)OCCS1 | 12.5 µg/mL | inhibition |  | BACTEC | H37Rv | 26% |
| FC(F)(F)c1nc2c(Br)cc(Br)cc2[nH]1 |  | MIC |  |  | My 331/88 | 32 µM |
| COc1nc2ccc(Br)cc2cc1C(c1ccccc1)C(O)(CCN1C=CN(C)C=C1)c1cccc2ccccc12 |  | MIC90 |  |  | H37Rv | 48.5 µg/mL |
| CC1=NN(c2ccccc2)C(=O)C1N=Nc1ccc(S(=O)(=O)Nc2occ(C)c2C)cc1 | 12.8 µg/mL | inhibition |  | BACTEC | H37Rv | 68% |
| COc1nc2ccccc2cc1C(c1ccccc1)C(C)(O)CCN(C)C |  | MIC90 |  |  | H37Rv | 44.34 µg/mL |
| Cc1ccc(C)n1-c1nc(-c2ccc(Cl)cc2Cl)cs1 |  | MIC |  | resazurin | H37Rv | 0.4 µg/mL |
| N#Cc1ccn2c(-c3ccc(F)cc3)c(-c3ccc(F)cc3)c(Br)c2c1 | 6.25 µg/mL | inhibition |  |  | H37Rv | 58% |
| C/C=C(C)\C=N\NC(=S)N/N=C/C(C)=C\C | 6.25 µg/mL | inhibition |  | resazurin | H37Rv | 4% |
| CO[C@H]1/C=C/O[C@@]2(C)Oc3c(C)c(O)c4c(O)c(c(/C=N/OCCN5CCCC5)c(O)c4c3C2=O)NC(=O)/C(C)=C\C=C\[C@H](C)[C@H](O)[C@@H](C)[C@@H](O)[C@@H](C)[C@H](OC(C)=O)[C@@H]1C |  | MIC |  |  | H37Rv | 2 µg/mL |
| CC1(C)CC(=O)C2=C(C1)NC(SSC1=C(C#N)C(c3ccc(Br)cc3)C3=C(CC(C)(C)CC3=O)N1)=C(C#N)C2c1ccc(Br)cc1 | 12.5 µg/mL | inhibition |  | BACTEC | H37Rv | -1% |
| CC(=O)c1ccn2c(-c3ccccc3)c(-c3ccccc3)c(C(O)c3ccccc3)c2c1 | 6.25 µg/mL | inhibition |  |  | H37Rv | 18% |
| CSc1ccc(C2C(C(=O)Nc3ccc(C)cc3C)=C(C)NC(C)=C2C(=O)Nc2ccc(C)cc2C)cc1 | 2.5 µg/mL | inhibition |  |  | H37Rv | 59% |
| NC(=O)c1cc2cc(CN3CCCCC3)ccc2o1 |  | MIC bound |  | BACTEC | H37Rv | >6.25 µg/mL |
| Cc1ccc(-c2ccc3oc(=O)cc(-c4ccccc4)c3c2)cc1 |  | EC90 | FadD32 | turbidity | H37Rv | >250 µM |
| O=[N+]([O-])c1ccc(Sc2nc3c(Br)cc(Br)cc3[nH]2)cc1 |  | MIC |  |  | My 331/88 | 4 µM |
| CCCCCCCCCCCCCCCCS(=O)(=O)N(/N=c1\sc2ccccc2n1C)C(=O)OCC |  | MIC bound |  | BACTEC | H37Rv | >12.5 µg/mL |
| COC(=O)c1ccccc1S(=O)(=O)NC(=O)Nc1nc(C)cc(C)n1 |  | MIC |  |  | ATCC35801 | 12 µM |
| Cc1nn(C(=O)c2ccncc2)c(C)c1N=Nc1cccc2ccccc12 |  | MIC bound |  | BACTEC | H37Rv | >12.5 µg/mL |
| C=C1CC(=O)N(NC(=O)c2ccc(-n3c(C)ccc3C)cc2)C1=O |  | MIC |  | resazurin | H37Rv | 3.125 µg/mL |
| CC1(C)Oc2c(c3nc4ccccc4nc3c3ccccc23)C=C1Br |  | MIC |  | resazurin | ATCC 35338 | 6.25 µg/mL |
| COc1ccc(/C=N/NC(=O)CNC(=O)Nc2n[nH]c(=S)s2)cc1 | 12.5 µg/mL | inhibition |  | BACTEC | H37Rv | 20% |
| CCCCO/N=C/c1c2c(O)c3c(O)c(C)c4c(c3c1O)C(=O)[C@@](C)(O/C=C/[C@H](OC)[C@@H](C)[C@@H](OC(C)=O)[C@H](C)[C@H](O)[C@H](C)[C@@H](O)[C@@H](C)/C=C/C=C(/C)C(=O)N2)O4 |  | MIC |  |  | H37Rv | 0.1 µg/mL |
| CO[C@H]1/C=C/O[C@@]2(C)Oc3c(C)c(O)c4c(=O)c(c5oc6cc(N7CCN(CC(C)C)CC7)cc(=O)c6nc5c4c3=C2O)NC(=O)/C(C)=C\C=C\[C@H](C)[C@H](O)[C@@H](C)[C@@H](O)[C@@H](C)[C@H](OC(C)=O)[C@@H]1C |  | MIC |  |  | Kurono | 0.002 µg/mL |
| CCCCCC(O)c1c(-c2ccccc2)c(-c2ccccc2)n2ccc(C#N)cc12 | 6.25 µg/mL | inhibition |  |  | H37Rv | 96% |
| Cc1cc(=O)c(C)c2sc3ccccc3nc1-2 | 12.5 µg/mL | inhibition |  | BACTEC | H37Rv | 98% |
| O=C(O)c1cn(C2CC2F)c2c(Cl)c(N3CC4CCCNC4C3)c(F)cc2c1=O |  | MIC |  |  | H37Rv (RFP-susceptible) | 0.025 µg/mL |
| COc1cccc(/C=C2/N=C(Cl)OC2=O)c1O |  | MIC bound |  | BACTEC | H37Rv | >12.5 µg/mL |
| FC(F)(F)C(F)(F)c1nc2cc(Cl)c(Cl)cc2[nH]1 |  | MIC |  |  | My 331/88 | 4 µM |
| C=C1CC(=O)N(NC(=O)c2ccc(-n3cccc3)cc2)C1=O |  | MIC |  | resazurin | H37Rv | 3.125 µg/mL |
| C/C(=N\NC(=O)c1cccnc1)c1cccc(/C(C)=N/NC(=O)c2cccnc2)n1 |  | MIC |  |  | PAS-R | >12.5 µg/mL |
| CO[C@H]1/C=C/O[C@@]2(C)Oc3c(C)c(O)c4c(O)c(c(/C=N/OCCN5CCOCC5)c(O)c4c3C2=O)NC(=O)/C(C)=C\C=C\[C@H](C)[C@H](O)[C@@H](C)[C@@H](O)[C@@H](C)[C@H](OC(C)=O)[C@@H]1C |  | MIC |  |  | H37Rv | 0.5 µg/mL |
| COc1nc2ccc(Br)cc2cc1C(c1ccccc1)C(O)(CCN1CCOCC1)c1ccc2ccccc2c1 |  | MIC90 |  |  | H37Rv | 59.76 µg/mL |
| CC1=C2C(=O)[C@H]3[C@@H](CC=C4C[C@@H](O)CC[C@@]43C)[C@@H]2CC[C@]12O[C@@H]1C[C@H](C)CN[C@H]1[C@H]2C |  | MIC |  | BACTEC | H37Rv | 64 µg/mL |
| COc1ccccc1-c1c(C)cc2oc(=O)cc(-c3ccccc3)c2c1C |  | EC90 | FadD32 | turbidity | H37Rv | >64 µM |
| CC1CCC2C(C1)c1c(c3ccccc3c3nc4ccccc4nc13)OC2(C)C |  | MIC |  | resazurin | ATCC 35338 | 6.25 µg/mL |
| CCC1CN(c2c(F)cc3c(=O)c(C(=O)O)cn([C@@H]4C[C@@H]4F)c3c2OC)CCN1 |  | MIC |  |  | 43 (RFP-susceptible) | 1 µg/mL |
| CC1=C(C(=O)Nc2ccc(C)cc2C)C(c2cccc([N+](=O)[O-])c2)C(C(=O)Nc2ccc(C)cc2C)=C(C)N1 |  | EC50 |  |  | H37Rv | <2.5 µg/mL |
| COC(c1ccccc1)c1c(-c2ccccc2)c(-c2ccccc2)n2ccc(C(C)=O)cc12 | 6.25 µg/mL | inhibition |  |  | H37Rv | 80% |
| NCC(=O)N/N=C/c1ccc([N+](=O)[O-])o1 |  | MIC |  |  | INH-r | 6.3 µg/mL |
| NNC(=O)c1ccncc1 |  | MIC99 |  | BACTEC | H37Rv | 0.29 µM |
| CCN(CC)CCCNc1c(O)cc(C)c2sc3ccccc3c(=O)c12 | 12.5 µg/mL | inhibition |  | BACTEC | H37Rv | 0% |
| NNC(=O)c1ccncc1 |  | EC50 |  |  | H37Rv | 0.065 µg/mL |
| Nc1nc(-c2ccccc2)c(N=Nc2ccc([N+](=O)[O-])cc2[N+](=O)[O-])s1 | 6.25 µg/mL | inhibition |  | BACTEC | H37Rv | 28% |
| CCCCN1C[C@H](C)O[C@@H](O[C@H]2[C@H](C)[C@@H](O[C@@H]3O[C@H](C)CC(=O)[C@H]3O)[C@@H](C)C[C@](C)(OC(=O)N3C[C@@H](C)O[C@@H](C)C3)C(=O)[C@H](C)[C@H](OC(=O)CC(C)C)[C@@H](C)[C@@H]([C@@H](C)CO[C@@H]3O[C@H](C)[C@@H](O)[C@@H](OC)[C@H]3OC)OC(=O)[C@@H]2C)C[C@H]1C |  | MIC |  | resazurin | H37Rv | 1.44 µM |
| COc1ccc(C2C=C(C)Oc3c2c(=O)oc2ccccc32)cc1OC | 12.5 µg/mL | inhibition |  | BACTEC | H37Rv | -19% |
| FC(F)(F)C(F)(F)C(F)(F)C(F)(F)c1nc2c(Br)c(Br)c(Br)c(Br)c2[nH]1 |  | MIC |  |  | My 331/88 | 16 µM |